Source: ChEMBL document CHEMBL1201862, “PubChem BioAssay data set” (2004)
This is one part of the list. The calls are words filed in the database; no cut-off is given here. Only a part of the results of these assays is listed, not drawn at random.

Biological target: T1, Phosphoglycerate kinase, glycosomal (Trypanosoma brucei brucei) (UniProt P07378)
T1 sequence (whole entry): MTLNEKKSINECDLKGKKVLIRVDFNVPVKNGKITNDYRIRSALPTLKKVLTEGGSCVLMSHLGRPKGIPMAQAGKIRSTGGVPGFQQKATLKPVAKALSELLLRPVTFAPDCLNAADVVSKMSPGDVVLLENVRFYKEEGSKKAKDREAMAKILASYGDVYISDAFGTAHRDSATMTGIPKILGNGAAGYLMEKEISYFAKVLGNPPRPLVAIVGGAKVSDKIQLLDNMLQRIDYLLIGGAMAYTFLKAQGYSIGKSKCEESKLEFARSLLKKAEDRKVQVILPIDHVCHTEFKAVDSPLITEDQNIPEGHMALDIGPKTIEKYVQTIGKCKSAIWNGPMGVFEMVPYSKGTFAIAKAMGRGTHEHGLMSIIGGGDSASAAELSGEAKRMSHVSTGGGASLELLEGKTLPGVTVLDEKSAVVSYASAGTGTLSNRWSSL
Assay: qHTS for inhibitors of Phosphogylcerate Kinase: Hit Validation Screen.
Type: functional

Q: How did the Potency turn out when `O=C1C(O)=C([N+](=O)[O-])C(=O)C(O)=C1[N+](=O)[O-]` was run?
A: active: 5.8 µM
